In patent publication US20040214757:
At least one result comes from cells or an extract, where the contact may be indirect. For some assays here: Where a protein sequence is shown, tags need not be part of it. For some assays here: The exact form of at least one protein or probe is not confirmed.

Tests used:
[1] = biological target: T1, EBNA-1 C-terminal domain beta-galactosidase fusion (Epstein-Barr virus) (UniProt P03211); assay: binding assay; settings: plaque filter screening; protein in a lysate after overexpression; protein details: beta-galactosidase fusion, lambda EB lysogen
T1 sequence (looked up): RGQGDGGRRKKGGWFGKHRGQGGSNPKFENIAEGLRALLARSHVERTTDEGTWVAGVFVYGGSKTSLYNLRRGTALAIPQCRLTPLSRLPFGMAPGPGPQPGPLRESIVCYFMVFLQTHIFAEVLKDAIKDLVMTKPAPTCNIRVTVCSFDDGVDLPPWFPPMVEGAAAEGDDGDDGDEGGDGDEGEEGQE

[2] = system: NF-kappaB (Homo sapiens); assay: binding assay; settings: CITED direct binding per footnote; protein in an extract; protein details: PHA/PMA-stimulated Jurkat nuclear extract; cited from earlier work

Sequence	binding result [1]	binding result [2]
AGATTAGGATAGCATATGCTACCCAGATAT (double strand) [EBNA-1 consensus 30-mer]	binds	–
AGGGACTTTCC (double strand) [HIV-1 (-105) kappaB site]	–	binds
